Measured values from several laboratories, pooled; numbers as filed in NIAID ChemDB.

All rows: whole-cell or culture tests; agent: HIV-1; read-out: EC50

ECn: concentration that inhibits the pathogen or its effect by n%. Lines come from different laboratories, so protocols vary. An empty or dashed field is not shown.

compound,strain or isolate,changes,cells,method,setting,value
C/C=C/COC(C(=O)O)c1c(C)nc2ccc(Br)cc2c1-c1ccc(Cl)cc1,-,-,C8166,luciferase / reporter gene,-,<20 µM
Cc1nnc(SCC(=O)Nc2ccc(S(N)(=O)=O)cc2Cl)n1-c1cccc2ccccc12,NL4-3,RT-Y188L,HeLa + HeLa-JC53,luciferase,-,0.19 µM
Cc1occc1C(=S)Nc1ccc(Cl)c(C(=O)OC(C)C)c1,NL4-3,RT-L74V,CEM + CEM-SS,cytopathic effect / XTT,-,0.03 µM
CC#CCOC(C(=O)O)c1c(C)nc2ccc(Br)cc2c1-c1ccc(Cl)cc1,-,-,C8166,luciferase / reporter gene,-,<20 µM
COc1cccc2[nH]cc(C(=O)C(=O)N3CCN(C(=O)c4ccccc4)C[C@H]3C)c12,NL4-3,-,MT-2/CXCR4,virus yield,-,0.00294 µM
Cc1ccc(-c2ccc(NC(=O)N3CCC4(CCO4)CC3)cc2)cc1,BJOX2000,-,TZM-bl,luminescence,pseudotyped,>30 µM
O=C(C(=O)N1CCN(C(=O)c2c(S)cccc2Cl)CC1)c1c[nH]c2cccc(Cl)c12,-,-,HeLa + HELA CD4+/CCR5,luciferase,-,<10 µM
CC(C)C1=C2[C@H]3CC[C@@H]4[C@@]5(C)CC[C@H](OC(=O)[C@@H]6C[C@H](C(=O)O)C6(C)C)C(C)(C)[C@@H]5CC[C@@]4(C)[C@]3(C)CC[C@@]2([C@@H](O)CN(CCN(C)C)C(=O)c2ccc(Cl)cc2)CC1=O,92HT599,-,MT-2,p24 / ELISA,-,<1 µM
C=CCN(N=O)C(=O)NCCC[C@H](NC(C)=O)C(=O)NCc1ccccc1,IIIB,-,CEM-IW + CEM,cytopathic effect / XTT,-,>100 µM
CC(C)CN(C[C@@H](O)[C@H](Cc1ccccc1)NC(=O)O[C@H]1CO[C@H]2OCC[C@H]21)S(=O)(=O)c1ccc2c(c1)OCO2,92UG037,-,PHA-PBM,p24,-,0.0004 µM
Cc1ccc(C)n1-c1ccc(C(=O)O)c(O)c1,CMU02 X4 CLADE EA,-,PBMC/5.25M7,luciferase / cell fusion,-,34.5 µM
C/C=C/CSc1cc(NC(=S)c2ccsc2C)ccc1Cl,NL4-3,RT-Y181C,CEM + CEM-SS,p24,-,0.5 µM
CCCC(C(=O)O)c1c(C)nc2ccc(Cl)cc2c1-c1cccc(OC)c1,-,-,C8166,luciferase / reporter gene,-,<20 µM
CC(=O)N[C@@H](CCCCN(Cc1ccccc1)C(=O)N(C)N=O)C(=O)NCc1ccccc1,IIIB,-,CEM-IW + CEM,cytopathic effect / XTT,-,>100 µM
Cc1nnc(SCC(=O)Nc2ccccc2Br)n1-c1ccc(Cl)c2ccccc12,NL4-3,RT-Y188L,HeLa + HeLa-JC53,luciferase,-,0.2 µM
COc1cc(N2CC[C@@H](NC(C)=O)C2)c2nc(C)c(-c3ccc(OC)c(OC)c3)n2n1,-,-,H9,p24,-,>1 µM
CCc1ccc(-c2c(C(OC(C(F)(F)F)C(F)(F)F)C(=O)O)c(C)nc3ccc(Cl)cc23)cc1,-,-,C8166,luciferase / reporter gene,-,<20 µM
CC(C)C1=C2[C@H]3CC[C@@H]4[C@@]5(C)CC[C@H](OC(=O)[C@H]6C[C@@H](C(=O)O)C6(C)C)C(C)(C)[C@@H]5CC[C@@]4(C)[C@]3(C)CC[C@@]2([C@@H](O)CNCc2ccc(N3CCOCC3)cc2)CC1=O,92HT599,-,MT-2,p24 / ELISA,-,<1 µM
COc1ccc([C@H]2CC23N=C(c2ccccc2)OC3=O)cc1OC(C)=O,IIIB,-,MT-4/C8166 + MT-4,MTT,-,26.3 µg/mL
O=C(C(=O)N1CCN(C(=O)c2ccc(C(F)(F)F)o2)CC1)c1c[nH]c2c(F)ccc(F)c12,-,-,HeLa + HELA CD4+/CCR5,luciferase,-,<10 µM
Cc1nc2ccc(Cl)cc2c(-c2ccc3c(c2)OCO3)c1C(OC(C)C)C(=O)O,-,-,C8166,luciferase / reporter gene,-,<20 µM
Cc1ccc(CNCC[C@@]23CC[C@]4(C)[C@H](CC[C@@H]5[C@@]6(C)CC[C@H](OC(=O)[C@H]7C[C@@H](C(=O)O)C7(C)C)C(C)(C)[C@@H]6CC[C@]54C)C2=C(C(C)C)C(=O)C3)cc1,92HT599,-,MT-2,p24 / ELISA,-,<1 µM
COc1cccc(-c2c(C)nc3c(N4CC[C@@H](NC(C)=O)C4)cc(Cl)nn23)c1,-,-,H9,p24,-,>100 µM
COC(=O)c1cccc2c(C(=O)C(=O)N3CCN(C(=O)c4ccccc4)CC3C(F)(F)F)c[nH]c12,-,-,HeLa + HELA CD4+/CCR5,luciferase,-,<10 µM
CC(C)C1=C2[C@H]3CC[C@@H]4[C@@]5(C)CC[C@H](OC(=O)[C@H]6C[C@@H](C(=O)O)C6(C)C)C(C)(C)[C@@H]5CC[C@@]4(C)[C@]3(C)CC[C@@]2(CCNC(=O)c2ccc(CN3CCC(O)CC3)cc2)CC1=O,92HT599,-,MT-2,p24 / ELISA,-,<1 µM
Cc1nc2ccc(Br)cc2c(-c2ccc(Cl)cc2)c1C(OC1CCCC1)C(=O)O,-,-,C8166,luciferase / reporter gene,-,<20 µM
Nc1nc(NC2CC2)c2ncn([C@H]3C=C[C@@H](CO)C3)c2n1,IIIB,-,PBL(PHA STIM.) + PBL,-,-,4 µM
CC(C)C1=C2[C@H]3CC[C@@H]4[C@@]5(C)CC[C@H](OC(=O)[C@H]6C[C@@H](C(=O)O)C6(C)C)C(C)(C)[C@@H]5CC[C@@]4(C)[C@]3(C)CC[C@@]2([C@@H](O)CNCc2ccc(O[C@H]3CCOC3)cc2)CC1=O,92HT599,-,MT-2,p24 / ELISA,-,<1 µM
COc1ccc(-c2c(C)nc3c(N4CC[C@H](O)C4)cc(C)nn23)cc1OC,-,-,H9,p24,-,0.5 µM
Cc1nc2ccccc2c(-c2ccccc2O)c1C(OC(C)C)C(=O)O,-,-,C8166,luciferase / reporter gene,-,<20 µM
CC(C)C1=C2[C@H]3CC[C@@H]4[C@@]5(C)CC[C@H](OC(=O)[C@H]6C[C@@H](C(=O)O)C6(C)C)C(C)(C)[C@@H]5CC[C@@]4(C)[C@]3(C)CC[C@@]2([C@@H](O)CNC(=O)C(C)(C)NC(=O)c2ccc(O[C@H]3CCOC3)cc2)CC1=O,92HT599,-,MT-2,p24 / ELISA,-,<1 µM
COc1cccc2c(C(=O)C(=O)N3CCN(C(=O)c4ccccc4)CC3)c[nH]c12,-,-,HeLa + HELA CD4+/CCR5,luciferase,-,<10 µM
COC[C@@H](c1ccc(C(F)(F)F)cc1)N1CCN(C2(C)CCN(C(=O)c3c(C)ncnc3C)CC2)C[C@@H]1C,S,V535,TZM-bl,-,-,0.025 µM
COc1ccc(-n2c(SCC(=O)Nc3ccc(S(N)(=O)=O)cc3Cl)nnc2C(F)(F)F)c2ccccc12,NL4-3,RT-Y188L,HeLa + HeLa-JC53,luciferase,-,0.014 µM
CC(C)C1=C2[C@H]3CC[C@@H]4[C@@]5(C)CC[C@H](OC(=O)[C@H]6C[C@@H](C(=O)O)C6(C)C)C(C)(C)[C@@H]5CC[C@@]4(C)[C@]3(C)CC[C@@]2(CC(=O)NC2(c3ccc(Cl)cc3)CCCCC2)CC1=O,92HT599,-,MT-2,p24 / ELISA,-,<1 µM
Cc1occc1C(=S)Nc1ccc(Cl)c(/C=N/OC(C)(C)C)c1,IIIB,-,CEM + CEM-SS,cytopathic effect / XTT,-,0.2 µM
CCCNCCC[C@H](NC(C)=O)C(=O)NCc1ccccc1,IIIB,-,CEM-IW + CEM,cytopathic effect / XTT,-,>100 µM
CC(C)c1c(Cc2ccccc2)n(COCc2ccccc2)c(=O)[nH]c1=O,A17,Y181C,TZM-bl,p24 / ELISA,-,>10 µM
CC1=C(C(=O)Nc2ccc(Cl)c(C(=O)OC(C)C)c2)SCCO1,IIIB,-,CEM + CEM-SS,cytopathic effect / XTT,-,0.8 µM
CCCc1cc(=O)oc2c3c(c4c(c12)OC(C)(C)CC4)O[C@@H](C)[C@H](C)[C@@H]3O,A17,RT-K103N Y181C,CEM + CEM-SS,cytopathic effect / XTT,-,0.8 µM
CC(=O)N[C@@H](CCCCNC(=O)NCCCl)C(=O)NCc1ccccc1,IIIB,-,CEM-IW + CEM,cytopathic effect / XTT,-,>100 µM
COc1ccc(-c2c(C)nc3c(N4CC[C@@H](NC(=O)NC(C)C)C4)cc(C)nn23)cc1OC,-,-,H9,p24,-,<1 µM
COc1ccc(Br)c2[nH]cc(C(=O)C(=O)N3CCN(C(=O)c4ccccn4)C[C@H]3C)c12,-,-,HeLa + HELA CD4+/CCR5,luciferase,-,<10 µM
Cc1occc1C(=S)Nc1ccc(Cl)c(C(=O)OCC2CC2)c1,NL4-3,RT-A98G,CEM + CEM-SS,cytopathic effect / XTT,-,0.1 µM
Cc1ccc(-n2c(C)nnc2SCC(=O)Nc2ccc(Cl)cc2)cc1,NL4-3,RT-K103N Y181C,HeLa + HeLa-JC53,luciferase,-,>10 µM
CC(C)C1=C2[C@H]3CC[C@@H]4[C@@]5(C)CC[C@H](OC(=O)[C@H]6C[C@@H](C(=O)O)C6(C)C)C(C)(C)[C@@H]5CC[C@@]4(C)[C@]3(C)CC[C@@]2([C@@H](O)CNCC(C)(C)NC(=O)c2ccccn2)CC1=O,92HT599,-,MT-2,p24 / ELISA,-,<1 µM
COc1ccc(-c2scc3c(N4CC[C@@H](NC(C)=O)C4)nc(C)nc23)cc1OC,-,-,H9,p24,-,>100 µM
Cc1ccsc1C(=S)Nc1ccc(Cl)c(/C=N/OC(C)C)c1,IIIB,-,CEM + CEM-SS,cytopathic effect / XTT,-,0.07 µM
CC(C)C1=C2[C@H]3CC[C@@H]4[C@@]5(C)CC[C@H](OC(=O)[C@H]6C[C@@H](C(=O)O)C6(C)C)C(C)(C)[C@@H]5CC[C@@]4(C)[C@]3(C)CC[C@@]2(CCNCc2ccc(N3CCN(C)CC3)cc2)CC1=O,92HT599,-,MT-2,p24 / ELISA,-,<1 µM
CC=CCOc1cc(NC(=S)c2ccoc2C)ccc1OC,IIIB,-,CEM + CEM-SS,cytopathic effect / XTT,-,0.01 µM
C[C@@H]1CN(C(=O)c2ccccc2)CCN1C(=O)C(=O)c1c[nH]c2c(F)cccc12,-,-,HeLa + HELA CD4+/CCR5,luciferase,-,<10 µM
CC(=O)N[C@@H](CCCNCc1ccccc1)C(=O)NCc1ccccc1,IIIB,-,CEM-IW + CEM,cytopathic effect / XTT,-,>100 µM
COc1cc2c(cc1Cc1cccc(Cl)c1F)c(=O)c(C(=O)O)cn2[C@H](CO)C(C)C,NL4-3,G118R,PM1,RT activity,-,0.0012 µM
C[C@@H]1CN(C(=O)c2ccc(Br)o2)CCN1C(=O)C(=O)c1c[nH]c2c(F)ccc(F)c12,-,-,HeLa + HELA CD4+/CCR5,luciferase,-,<10 µM

6 of the rows above, restated:

compound	strain or isolate	changes	cells	method	setting	value
Cc1ccc(-c2ccc(NC(=O)N3CCC4(CCO4)CC3)cc2)cc1	BJOX2000	-	TZM-bl	luminescence	pseudotyped	>30 µM
C=CCN(N=O)C(=O)NCCC[C@H](NC(C)=O)C(=O)NCc1ccccc1	IIIB	-	CEM-IW + CEM	cytopathic effect / XTT	-	>100 µM
CCCNCCC[C@H](NC(C)=O)C(=O)NCc1ccccc1	IIIB	-	CEM-IW + CEM	cytopathic effect / XTT	-	>100 µM
Cc1ccc(C)n1-c1ccc(C(=O)O)c(O)c1	CMU02 X4 CLADE EA	-	PBMC/5.25M7	luciferase / cell fusion	-	34.5 µM
CC=CCOc1cc(NC(=S)c2ccoc2C)ccc1OC	IIIB	-	CEM + CEM-SS	cytopathic effect / XTT	-	0.01 µM
CC1=C(C(=O)Nc2ccc(Cl)c(C(=O)OC(C)C)c2)SCCO1	IIIB	-	CEM + CEM-SS	cytopathic effect / XTT	-	0.8 µM